Values quoted from earlier work in PMC5618561 (International Journal of Molecular Sciences, 2017).

Test system: behavioral and electrographic SE induced by pilocarpine, soman and paraoxon
Details: cited from earlier work

CCCC(C(N)=O)C(C)CC (stereo not shown) [SPD, sec-Butylpropylacetamide]
block of behavioral and electrographic SE: blocked
